Results of unrelated studies side by side (data: NIAID ChemDB).

All rows: growth or infection tests; species: HIV-1; measure: fold resistance

Blank or dashed fields: not listed here.

C=Cc1cccc(C(=O)c2c(CC)c(C)[nH]c(=O)c2N(C)C)c1 ; method: cytopathic effect / MTT ; cell line: MT-4 ; changes: RT-K103N ; value: 16
Nc1ccn([C@H]2CC[C@@H](CO)O2)c(=O)n1 ; method: p24 ; cell line: MT-2 ; changes: RT-L74V ; strain or isolate: L74V(RT-L74V) ; value: 3.3
CC(C)Oc1ccc(Cc2ccccc2)cc1C(=O)CC(=O)C(=O)O ; changes: INTG-N155S ; value: 10
CC(C)=CCN1Cc2cccc3[nH]c(=S)n(c23)C[C@@H]1C ; method: RT activity ; cell line: MT-2 ; changes: RT-S156A ; strain or isolate: HX(RT-S156A) ; value: 0.692
CCOC(=O)/C=C/c1cccc(C(=O)c2c(CC)c(C)[nH]c(=O)c2N(C)C)c1 ; method: cytopathic effect / MTT ; cell line: MT-4 ; changes: RT-Y188L ; value: 32.6
Nc1nc2c(ncn2[C@H]2CO[C@@H](CO)O2)c(=O)[nH]1 ; changes: RT-M41L L74V Y181C M184V G190A L210W T215Y ; strain or isolate: RT M41L 74V 184V 210W 215Y 181C 190A ; value: 3.2
C/C=C/CSc1cc(NC(=S)c2ccsc2C)ccc1Cl ; method: cytopathic effect / XTT ; cell line: CEM + CEM-SS ; changes: RT-M184V ; strain or isolate: NL4-3 (RT M184V) ; value: 2
C#C[C@@]1(CO)C=C[C@H](n2cc(C)c(=O)[nH]c2=O)O1 ; method: β-galactosidase ; cell line: MAGI (CCR5) + MAGI ; changes: RT-K103N ; strain or isolate: NL4-3 ; value: 0.59
Cc1ccc(-n2c(C)nnc2SCC(=O)Nc2ccccc2Cl)cc1 ; method: luciferase ; cell line: HeLa + HeLa-JC53 ; changes: RT-K103N Y181C ; strain or isolate: NL4-3 ; value: 215
Cc1cn([C@H]2C=C[C@@H](CO)O2)c(=O)[nH]c1=O ; method: plaque count ; cell line: CD4+HELA + HeLa ; changes: RT-L74V ; strain or isolate: HXB2 ; value: 1.7
CCc1c(Sc2ccccn2)n(COCc2ccccc2)c(=O)[nH]c1=O ; method: cytopathic effect / XTT ; cell line: CEM + CEM-SS ; changes: RT-L100I ; strain or isolate: IIIB ; value: 10
Cc1cn([C@H]2C=C[C@@H](CO)O2)c(=O)[nH]c1=O ; method: β-galactosidase ; cell line: MAGI (CCR5) + MAGI ; changes: RT-M184V ; strain or isolate: HXB2 ; value: 0.74
Cc1ccc(-n2cnnc2SCC(=O)Nc2ccc(C)cc2Br)cc1 ; method: luciferase ; cell line: HeLa + HeLa-JC53 ; changes: RT-K103N Y181C ; strain or isolate: NL4-3 ; value: >142
COC(=O)NCCCC(C)(C)CN(C[C@@H](O)[C@H](Cc1ccccc1)NC(=O)O[C@H]1CO[C@H]2OCC[C@H]21)S(=O)(=O)c1ccc(N)cc1 ; method: cytopathic effect / propidium iodide ; cell line: MT-4 ; changes: PR-M46I L63P A71V V82F/L I84V ; strain or isolate: Multi-PI-resistant EP13 ; value: 1.48
O=S(=O)(c1ccccc1)c1ccccc1 ; method: cytopathic effect / XTT ; cell line: CEM + CEM-SS ; changes: RT-Y181C ; strain or isolate: UC781-R (RT-Y181C) ; value: >16.3
Nc1cccc(CN2C(=O)N(Cc3cccc(N)c3)[C@H](Cc3ccccc3)[C@H](O)[C@@H](O)[C@H]2Cc2ccccc2)c1 ; method: virus yield ; cell line: MT-2 ; changes: PR-M46L V82V+I I84V+I ; strain or isolate: E (PR M46L V82V/I I84V/I) ; value: 10
CC(C)(CCCNS(C)(=O)=O)CN(C[C@@H](O)[C@H](Cc1ccccc1)NC(=O)O[C@H]1CO[C@H]2OCC[C@H]21)S(=O)(=O)c1ccc2c(c1)OCO2 ; method: cytopathic effect / propidium iodide ; cell line: MT-4 ; changes: PR-M46I L63P A71V V82F/L I84V ; strain or isolate: Multi-PI-resistant EP13 ; value: 1.42
COC(=O)N[C@H](C(=O)N[C@@H](Cc1ccccc1)[C@@H](O)CN(Cc1ccc(-c2ccccn2)cc1)NC(=O)[C@@H](NC(=O)OC)C(C)(C)C)C(C)(C)C ; method: p24 / luminescence ; cell line: MT-4 ; changes: L10F V32I M46I I54M A71V I84V ; strain or isolate: NL4-3 ; value: 210
Fc1cccc(F)c1C1SCc2nc3ccccc3n21 ; method: cytopathic effect ; cell line: CEM ; changes: RT-E138K ; value: 1.24
CCc1c(C)[nH]c(=O)c(N(C)C)c1Cc1cccc(/C=C/C#N)c1 ; method: cytopathic effect / MTT ; cell line: MT-4 ; changes: RT-K101E K103N ; value: 62.5
CCOP(=O)(COc1ccc(C[C@H](NC(=O)O[C@H]2CO[C@H]3OCC[C@H]32)[C@H](O)CN(CC(C)C)S(=O)(=O)c2ccc(OC)cc2)cc1)OCC ; method: p24 / ELISA ; cell line: MT-2 ; changes: D437N L441P ; strain or isolate: IIIB ; value: 1.7
Cc1occc1C(=S)Nc1ccc(Cl)c(/C=N/OC(C)(C)C)c1 ; method: cytopathic effect / XTT ; cell line: CEM + CEM-SS ; changes: RT-V108I ; strain or isolate: Thiazolobenzimidazole-resistant (RT V108I) ; value: 6
COC(=O)NCCCC(C)(C)CN(C[C@@H](O)[C@H](Cc1ccccc1)NC(=O)O[C@H]1CO[C@H]2OCC[C@H]21)S(=O)(=O)c1ccc2c(c1)OCO2 ; method: cytopathic effect / propidium iodide ; cell line: MT-4 ; changes: PR-M46I L63P A71V V82F/L I84V ; strain or isolate: Multi-PI-resistant EP13 ; value: 8.1
Cc1cn([C@H]2C=C[C@@H](CO)O2)c(=O)[nH]c1=O ; changes: RT-S68G Q151M T215Y ; strain or isolate: RT-68G 151M 215Y ; value: 23
Nc1ncnc2c1ncn2CCOCP(=O)(O)O ; method: p24 ; cell line: MT-2 ; changes: RT-F77L F116Y Q151M ; strain or isolate: RT F77L/F116Y/Q151M ; value: 1.4
O=C(NCc1ccc(F)cc1)c1nc(N2CCCCS2(=O)=O)c2cccnc2c1O ; changes: INTG-V151I ; value: 36
CCc1c(C)[nH]c(=O)c(N(C)C)c1C(=O)c1cccc(/C(C)=C(\C)C#N)c1 ; method: cytopathic effect / MTT ; cell line: MT-4 ; changes: RT-K103N ; value: 4.1
CNc1ccc(Cl)cc1S(=O)(=O)c1ccccc1[N+](=O)[O-] ; method: XTT ; cell line: CEM + CEM-SS ; changes: RT-T139L ; strain or isolate: Calanolide A-resistant (RT T139L) ; value: 0.7
Cc1cn([C@H]2C[C@H](N=[N+]=[N-])[C@@H](CO)O2)c(=O)[nH]c1=O ; method: RT activity ; cell line: MT-4 ; changes: RT-P294S ; strain or isolate: HXB2-D294 (RT-P294S) ; value: 1.3
Nc1ccn([C@H]2CC[C@@H](CO)O2)c(=O)n1 ; method: plaque count ; cell line: HELA/CD4 + HELA CD4+ ; changes: RT-M184I ; strain or isolate: HXB2 ; value: 0.952
CC(C)CN(C[C@@H](O)[C@H](Cc1ccccc1)NC(=O)[C@H](CC(N)=O)NC(=O)c1ccc2ccccc2n1)C(=O)NC(C)(C)C ; method: p24 ; cell line: MT-4 ; changes: PR-L10R L63P ; strain or isolate: NL4-3 ; value: 1
COc1ccc(-n2c(C)nnc2SCC(=O)Nc2ccc(C)cc2Cl)c2ccccc12 ; method: luciferase ; cell line: HeLa + HeLa-JC53 ; changes: RT-Y188L ; strain or isolate: NL4-3 ; value: 240
CO[C@H]1O[C@@H](n2ccc(=O)[nH]c2=O)C[C@@H]1N=[N+]=[N-] ; method: RT activity ; cell line: MT-2 ; changes: RT-L92I ; strain or isolate: PD165BC(RT-L92I) ; value: 0.084
CCN(c1nc(F)ccc1NC(C)(C)C)C1CCN(C(=O)c2cc3cc(NC(=O)N4CCN(C)CC4)ccc3[nH]2)CC1 ; method: ATP ; cell line: MT-2 ; changes: ATV-P36 ; strain or isolate: IIIB ; value: 0.6
COc1cc(C(F)(F)F)cc(S(=O)(=O)c2cccc(N)c2C#N)c1 ; method: β-galactosidase ; cell line: HeLa + HELA CD4+ ; changes: RT-Y181C ; value: 929
O=c1[nH]cnc2c1ncn2[C@H]1CC[C@@H](CO)O1 ; method: plaque count ; cell line: HT4 + HT4 LacZ-1 ; changes: RT-L74V ; strain or isolate: HXB2 ; value: 8
COc1ccc(S(=O)(=O)N(CC(C)C)C[C@@H](O)[C@H](Cc2ccc(OC)c(Cl)c2)NC(=O)O[C@H]2CO[C@H]3OCC[C@H]32)cc1 ; method: p24 / luminescence ; cell line: MT-4 ; changes: L10F M46I I54V V82A ; strain or isolate: NL4-3 ; value: 6
Nc1ccn([C@H]2CC[C@@H](CO)O2)c(=O)n1 ; method: plaque count ; cell line: CD4+HELA + HeLa ; changes: RT-L74V ; strain or isolate: HXB2 ; value: 18.3
Cn1c2ccccc2c2c1cc(C#N)c(=O)n2-c1ccc([N+](=O)[O-])cc1 ; method: luciferase ; cell line: HeLa ; changes: RT-K103N V108I ; strain or isolate: NNRTI-resistant ; value: 1.2
Cc1cn([C@H]2C[C@H](N=[N+]=[N-])[C@@H](CO)O2)c(=O)[nH]c1=O ; method: cytopathic effect / XTT ; cell line: CEM + CEM-SS ; changes: RT-V106I ; strain or isolate: NL4-3 ; value: 3
CC(C)(C)C(=O)c1sc(C(=O)NCCc2ccccc2)c(O)c1O ; changes: INTG-Q148K ; value: 1
Cc1cn([C@H]2C[C@H](N=[N+]=[N-])[C@@H](CO)O2)c(=O)[nH]c1=O ; method: plaque count ; cell line: HT4LACZ-1 + HT4 LacZ-1 ; changes: RT-M41L D67N K70R M184V T215Y ; strain or isolate: RTMQ+184V (RT M41L D67N K70R M184V T215Y) ; value: 1.5
CCc1c(C(=O)c2cc(C)cc(C)c2)n(CC2CC=CC2)c(=O)[nH]c1=O ; method: cytopathic effect / XTT ; cell line: CEM + CEM-SS ; changes: RT-V179D ; strain or isolate: NL4-3 ; value: 0.5
O=c1[nH]cnc2c1ncn2[C@@H]1O[C@H](CO)C[C@@H]1F ; method: p24 ; cell line: MT-2 ; changes: RT-P119S ; strain or isolate: P119S(RT-P119S) ; value: 1.4
Cc1cc(O)cc(S(=O)(=O)c2cccc(N)c2C#N)c1 ; method: β-galactosidase ; cell line: HeLa + HELA CD4+ ; changes: RT-E138K ; value: 1.27
COC(=O)NCCCCCC(C)(C)CN(C[C@@H](O)[C@H](Cc1ccccc1)NC(=O)O[C@H]1CO[C@H]2OCC[C@H]21)S(=O)(=O)c1ccc2c(c1)OCO2 ; method: cytopathic effect / propidium iodide ; cell line: MT-4 ; changes: PR-M46I L63P A71V V82F/L I84V ; strain or isolate: Multi-PI-resistant EP13 ; value: 8.36
Cc1cc(Cl)cc(S(=O)(=O)c2cccc(N)c2C#N)c1 ; method: β-galactosidase ; cell line: HeLa + HELA CD4+ ; changes: RT-V108I Y181C ; value: 2000
C#C[C@]1(CO)O[C@@H](n2cnc3c(N)nc(F)nc32)CC1O ; method: β-galactosidase / absorbance ; cell line: MAGIC-5A ; changes: M184V ; strain or isolate: NL4-3 ; value: 9
Cc1ccc2c(C)ccc(-n3c(C)nnc3SCC(=O)Nc3ccc(S(N)(=O)=O)cc3Cl)c2c1 ; method: luciferase ; cell line: HeLa + HeLa-JC53 ; changes: RT-Y188L ; strain or isolate: NL4-3 ; value: 10
Cc1cc(Br)cc(S(=O)(=O)c2cccc(N)c2C#N)c1 ; method: β-galactosidase ; cell line: HeLa + HELA CD4+ ; changes: RT-K103N ; value: 100
Cc1cn([C@H]2C[C@H](N=[N+]=[N-])[C@@H](CO)O2)c(=O)[nH]c1=O ; method: p24 ; cell line: MT-2 ; changes: RT-L214F ; strain or isolate: L214F(RT-L214F) ; value: 0.7
CC(C)c1nc(CN(C)C(=O)N[C@H](C(=O)N[C@@H](Cc2ccccc2)C[C@H](O)[C@H](Cc2ccccc2)NC(=O)OCc2cncs2)C(C)C)cs1 ; method: p24 ; cell line: MT-4 ; changes: PR-D30N A71V ; strain or isolate: NL4-3-P22 (PR D30N A71V) ; value: 1.8
CC(=O)NCCCC(C)(C)CN(C[C@@H](O)[C@H](Cc1ccccc1)NC(=O)O[C@H]1CO[C@H]2OCC[C@H]21)S(=O)(=O)c1ccc2c(c1)OCO2 ; method: cytopathic effect / propidium iodide ; cell line: MT-4 ; changes: PR-M46I L63P A71V V82F/L I84V ; strain or isolate: Multi-PI-resistant EP13 ; value: 1.3
Cc1ccnc2c1NC(=O)c1cccnc1N2C1CC1 ; method: cytopathic effect / XTT ; cell line: CEM + CEM-SS ; changes: RT-Y181C ; strain or isolate: NL4-3 (RT Y181C) ; value: 65
Cc1cn([C@H]2C[C@H](F)[C@@H](CO)O2)c(=O)[nH]c1=O ; method: antigen ; cell line: PBMC ; changes: RT-Q151M ; strain or isolate: A(RT-Q151M) ; value: 0.4
CC(C)(C)NC(=O)[C@@H]1C[C@@H]2CCCC[C@@H]2CN1C[C@@H](O)[C@H](Cc1ccccc1)NC(=O)[C@H](CC(N)=O)NC(=O)c1ccc2ccccc2n1 ; method: p24 ; cell line: MT-4 ; changes: PR-L10R M46I ; strain or isolate: NL4-3 ; value: 1
CCc1c(C)[nH]c(=O)c(N(C)C)c1Cc1cc(Cl)cc(Cl)c1 ; method: cytopathic effect / MTT ; cell line: MT-4 ; changes: RT-K103N ; value: 3.1
Cc1cn([C@H]2C[C@H](N=[N+]=[N-])[C@@H](CO)O2)c(=O)[nH]c1=O ; method: ATP ; cell line: MT-2 ; changes: 8374-P36 ; strain or isolate: IIIB ; value: 0.4

Repeating the first 4 entries:

| SMILES | method | cell line | changes | strain or isolate | value |
|---|---|---|---|---|---|
| C=Cc1cccc(C(=O)c2c(CC)c(C)[nH]c(=O)c2N(C)C)c1 | cytopathic effect / MTT | MT-4 | RT-K103N |  | 16 |
| Nc1ccn([C@H]2CC[C@@H](CO)O2)c(=O)n1 | p24 | MT-2 | RT-L74V | L74V(RT-L74V) | 3.3 |
| CC(C)Oc1ccc(Cc2ccccc2)cc1C(=O)CC(=O)C(=O)O |  |  | INTG-N155S |  | 10 |
| CC(C)=CCN1Cc2cccc3[nH]c(=S)n(c23)C[C@@H]1C | RT activity | MT-2 | RT-S156A | HX(RT-S156A) | 0.692 |

Fold resistance has wild type as its base. Conditions beyond the fields shown may differ between rows.